Construct, isoform or probe ends are uncertain for at least one entry.
Experiments:
[1] = test system: RNA polymerase holoenzyme; test: pull-down; conditions: with 100 nM ToxR-N; commercial protein; label: biotin 5' on reverse primer; probe letters rebuilt from the primers and the genome
ToxR (full length) = ToxR (full length) (UniProt Q9RP86); test: EMSA; conditions: ToxR 0-800 nM, competed by unlabeled same DNA; recombinant protein; residues 1-290; protein details: C-terminal Strep-tag; label: 32P 5' end; probe letters rebuilt from the primers and the genome

Row | Sequence | binding result [1] | binding result (ToxR (full length))
1 | CTGCAGAAGTCGACTTTCCCAGTTACGTGTCAATTTCATAGCGCTAATATTGACGAGATTGTTGGGTTTTGTGGTCAAACAATAGTTGCAGCAAATGCTTTAAGGGGGTTAAGTGATGAGACATCACTTAGCTCAATAATTGCTACTTATGAGGGTATTTCTGTTTTTTATAGTTTTTTAGGTTTTACTTAAATATATGTTTTTAATCAACAAAAATGATAATTGGCTAAAATATTGTGATTAATTATCAATCTAGTTGCTAAACATCAATGAATTCAATGATAGTGAGCTGCGCCCTGAGAGTGATGAGGGCGATAAATATAAGAAATACAGGTTATCTATTCCTGACTATCAAATTCAAATTTGTTGACCGTTACACGAGAGGCGCACTAGATGTTAGATAAAAAAGATGCGATGAGCGCGATTGCCAGCTATCGAATGGAAAGTAC (double strand) [leuO upstream wild type (pull-down)] | binds | 
2 | TCTAGATAAAGTACTTTCCATTCGATAGCTGGCAATCGCGCTCATCGCATCTTTTTTATCTAACATCTAGTGCGCCTCTCGTGTAACGGTCAACAAATTTGAATTTGATAGTCAGGAATAGATAACCTGTATTTCTTATATTTATCGCCCTCATCACTCTCAGGGCGCAGCTCACTATCATTGAATTCATTGATGTTTAGCAACTAGATTGATAATTAATCACAATATTTTAGCCAATTATCATTTTTGTTGATTAAAAACATATATTTAAGTAAAACCTAAAAAACTATAAAAAACAGAAATACCCTCATAAGTAGCAATTATTGAGCTAAGTGATGTCTCATCACTTAACCCCCTTAAAGCATTTGCCGCAACTATTGTTTGACCACCAAACCCAACAATCTCGTCAATATTAGCGGGTACC (double strand) [leuO upstream 412 bp] |  | binds

— publication PMC6934829, “Multi-Factor Regulation of the Master Modulator LeuO for the Cyclic-(Phe-Pro) Signaling Pathway in Vibrio vulnificus” (Scientific Reports, 2019)
